Anti-infective test results gathered from many reports (values: NIAID ChemDB through PubChem).

Shared fields: tests in culture

Lines come from different laboratories, so protocols vary. Zones are inhibition diameters on agar. Blank or dashed fields: not listed here.

SMILES | tested at | read by | endpoint | species | strain | result
CCOC(=O)c1nc(-c2ccc(N3C[C@H](CNC(C)=O)OC3=O)cc2F)ns1 | - | - | MIC | Staphylococcus epidermidis | UC12084 (methicillin-resistant) | >16 µg/mL
CCCCCCCCCCCC[N+](C)(C)CSCCCCCCCC | - | - | MIC | Staphylococcus aureus | ATCC33592 | 12.1 µM
N#Cc1ccc(N2CCN(c3ccc(N4C[C@H](COc5cnccn5)OC4=O)cc3F)CC2)nn1 | - | - | MIC | Staphylococcus aureus | 078 (oxford) | 1 µg/mL
CCCCCCCCCCCC[N+](C)(C)COCC(C)CC | - | - | MIC | Staphylococcus aureus | ATCC 6538 | 4.29 µM
COC(=O)[C@H](C)NC(=O)[C@H](Cc1ccc(O)cc1)NC(=O)[C@@H]1CCCN1C(=O)[C@H](CC(C)C)NC(=O)CNC(=O)[C@@H]1CCCN1C(=O)[C@H](CC(=O)O)NC(C)(C)C | 12.5 µg/mL | - | zone | Staphylococcus aureus | - | 9 mm
CC(=O)NC[C@H]1CN(c2ccc(-c3ccnn3C)c(F)c2)C(=O)O1 | - | - | MIC | Staphylococcus epidermidis | UC12084 (methicillin-resistant) | ≤0.5 µg/mL
CCCCCCCCCCCC[N+](C)(C)COCC(CC)CC | - | - | MBC | Staphylococcus aureus | ATCC 6538 | 13.7 µM
COc1ccc(-c2ccc(N3CC(CNC(C)=O)CC3=O)cc2)ccc1=O | - | - | MIC | Staphylococcus epidermidis | UC12084 | >64 µg/mL
CC(=O)NC[C@H]1CN(c2ccc(C3CCS(=O)(=O)CC3)c(F)c2)C(=O)O1 | - | - | MIC | Staphylococcus epidermidis | UC12084 | 0.5 µg/mL
CCCCCCCCCCCC[N+](C)(C)COC1CCCCCC1 | - | - | MIC | Staphylococcus aureus | ATCC 6538 | 13.3 µM
Cc1cn(-c2ccc(N3C[C@H](CSC4C=NN=N4)OC3=O)cc2F)cn1 | - | - | MIC | Staphylococcus aureus | 004 (methicillin quinolone-resistant) | 32 µg/mL
C=CC(=O)NC[C@H]1CN(c2ccc(C3CCS(=O)(=O)CC3)c(F)c2)C(=O)O1 | - | - | MIC | Staphylococcus epidermidis | UC12084 | 0.5 µg/mL
O=C(O)NC[C@H]1CC(c2ccc(-n3cccc3)c(F)c2)=NO1 | - | - | MIC | Staphylococcus epidermidis | UC12084 | 0.5 µg/mL
CC(=O)NC[C@H]1CN(c2ccc(-c3ccn(C(C)=O)n3)c(F)c2)C(=O)O1 | - | - | MIC | Staphylococcus epidermidis | UC12084 (methicillin-resistant) | 2 µg/mL
COC(=O)N1CC=C(c2ccc(C3=NO[C@H](CNC(=O)O)C3)cc2)CC1 | - | - | MIC | Staphylococcus epidermidis | UC12084 | >16 µg/mL
CC(=O)NC[C@H]1CN(c2ccc(-c3noc(C#N)n3)c(F)c2)C(=O)O1 | - | - | MIC | Staphylococcus epidermidis | UC12084 (methicillin-resistant) | 4 µg/mL
CCCCCCCC[N+](C)(C)COC1CCCCCCCCCCC1 | - | - | MBC | Staphylococcus aureus | ATCC33592 | 128 µM
COC(=O)n1ccc(-c2ccc(N3C[C@H](CNC(C)=O)OC3=O)cc2F)n1 | - | - | MIC | Staphylococcus epidermidis | UC12084 (methicillin-resistant) | 2 µg/mL
C=CCCCCCC(CCCCBr)CCCC(=O)NCCC=C | 100 µg/disc | agar diffusion | zone | Staphylococcus aureus | Clinical | 14 mm

2 of the rows above, restated:

{"SMILES": "C=CCCCCCC(CCCCBr)CCCC(=O)NCCC=C", "tested at": "100 µg/disc", "read by": "agar diffusion", "endpoint": "zone", "species": "Staphylococcus aureus", "strain": "Clinical", "result": "14 mm"}
{"SMILES": "COC(=O)n1ccc(-c2ccc(N3C[C@H](CNC(C)=O)OC3=O)cc2F)n1", "endpoint": "MIC", "species": "Staphylococcus epidermidis", "strain": "UC12084 (methicillin-resistant)", "result": "2 µg/mL"}